Measured values from several laboratories, pooled; numbers as filed in NIAID ChemDB.

Common to all: tests in culture; agent: HIV-2; cell line: CEM + CEM-SS; read-out: EC50

ECn is the concentration giving n% inhibition of infection, replication or growth.

compound	strain or isolate	method	result
CN1N=C(N)c2cn([C@@H]3O[C@H](COP(=O)(O)O)[C@@H](O)[C@H]3O)c3ncnc1c23	ROD	XTT	0.02 µM
Cc1cn([C@H]2C[C@H](N=[N+]=[N-])[C@@H](CO)O2)c(=O)[nH]c1=O	ROD	cytopathic effect / XTT	0.6 µM
Cc1cn([C@H]2C[C@H](N=[N+]=[N-])[C@@H](CO)O2)c(=O)[nH]c1=O	ROD	cytopathic effect / XTT	0.005 µM
CCCc1cc(=O)oc2c3c(c4c(c12)OC(C)(C)C=C4)O[C@H](C)[C@@H](C)[C@@H]3O	ROD	XTT	>10 µM
CCCc1cc(=O)oc2c3c(c4c(c12)OC(C)(C)C=C4)O[C@H](C)[C@@H](C)[C@@H]3O	MS	cytopathic effect / XTT	>10 µM
Cc1cn([C@H]2C[C@H](N=[N+]=[N-])[C@@H](CO)O2)c(=O)[nH]c1=O	ROD	cytopathic effect / XTT	0.0009 µM
CNc1ccc(Cl)cc1S(=O)(=O)c1ccccc1[N+](=O)[O-]	ROD	XTT	>100 µM
c1ccc2c(c1)sc1nccn12	-	cytopathic effect / XTT	>69 µM
C/C=C/CSc1cc(NC(=S)c2ccsc2C)ccc1Cl	ROD	cytopathic effect / XTT	>20 µM
Cc1cn([C@H]2C[C@H](N=[N+]=[N-])[C@@H](CO)O2)c(=O)[nH]c1=O	ROD	RT activity	0.003 µM
CC(C)c1cc(=O)oc2c3c(c4c(c12)OC(C)(C)C=C4)O[C@H](C)[C@@H](C)C3=O	ROD	-	0.27 µM
Cc1cn([C@H]2C[C@H](N=[N+]=[N-])[C@@H](CO)O2)c(=O)[nH]c1=O	ROD	cytopathic effect / XTT	0.005 µM
O=S1(c2ccccc2)=NC(=S)Nc2ccccc21	MS	cytopathic effect / XTT	>73 µM
O=[N+]([O-])c1ccccc1S(=O)(=O)c1ccccc1	ROD	cytopathic effect / XTT	>250 µM
Cc1cn([C@H]2C[C@H](N=[N+]=[N-])[C@@H](CO)O2)c(=O)[nH]c1=O	CBL-20	cytopathic effect / XTT	<0.01 µM
Cn1cc(N)cc1C(=O)Nc1cc(C(=O)Nc2ccc3cc(S(=O)(=O)O)cc(S(=O)(=O)O)c3c2)n(C)c1	ROD	cytopathic effect / XTT	120 µM
CCc1c(Sc2ccccn2)n(COCc2ccccc2)c(=O)[nH]c1=O	ROD	cytopathic effect / XTT	>2.7 µM
CCCc1cc(=O)oc2c3c(c4c(c12)OC(C)(C)C=C4)O[C@H](C)[C@@H](C)[C@@H]3O	-	cytopathic effect / XTT	>2.7 µM
CC(C)(C)OC(=O)N[C@@H](Cc1ccccc1)[C@H](O)CNC[C@@H](O)[C@H](Cc1ccccc1)NC(=O)OC(C)(C)C	CBL-20	cytopathic effect / XTT	0.33 µM
O=C(O)c1cc(O)cc(O)c1N=Nc1ccc(/C=C/c2ccc(N=Nc3c(O)cc(O)cc3C(=O)O)cc2S(=O)(=O)O)c(S(=O)(=O)O)c1	ROD	cytopathic effect / XTT	11.9 µg/mL
Cc1ccnc2c1NC(=O)c1cccnc1N2C1CC1	ROD	cytopathic effect / XTT	>38 µM
CCOP(=O)(/C=C/n1cc(Br)c(=O)[nH]c1=O)OCC	ROD	-	>200 µM
Cc1occc1C(=S)Nc1ccc(Cl)c(/C=N/OC(C)(C)C)c1	ROD	cytopathic effect / XTT	>20 µM
O=S1(c2ccccc2)=NC(=S)Nc2ccccc21	-	cytopathic effect / XTT	>73 µM
Cc1cn([C@H]2C[C@H](N=[N+]=[N-])[C@@H](CO)O2)c(=O)[nH]c1=O	ROD	cytopathic effect / MTT	0.018 µM
Nc1ncnc2c1ncn2/C=C/P(=O)(O)O	ROD	-	>200 µM
Nc1ccn([C@H]2CC[C@@H](CO)O2)c(=O)n1	ROD	cytopathic effect	0.0621 µM
O=c1[nH]c(=O)n(/C=C\P(=O)(O)O)cc1I	ROD	-	>200 µM
Cc1cn([C@H]2C[C@H](N=[N+]=[N-])[C@@H](CO)O2)c(=O)[nH]c1=O	ROD	cytopathic effect / XTT	0.005 µM
CC(C)c1cc(=O)oc2c3c(c4c(c12)OC(C)(C)C=C4)OC(C)C(C)C3=O	ROD	-	0.17 µM
O=c1[nH]c(=O)n(/C=C\P(=O)(O)O)cc1F	ROD	-	>200 µM
Cc1cn([C@H]2C[C@H](N=[N+]=[N-])[C@@H](CO)O2)c(=O)[nH]c1=O	ROD	cytopathic effect / XTT	0.002 µM

2 of the rows above, restated:

| compound | strain or isolate | method | result |
|---|---|---|---|
| Cc1cn([C@H]2C[C@H](N=[N+]=[N-])[C@@H](CO)O2)c(=O)[nH]c1=O | ROD | cytopathic effect / XTT | 0.0009 µM |
| Cc1cn([C@H]2C[C@H](N=[N+]=[N-])[C@@H](CO)O2)c(=O)[nH]c1=O | ROD | cytopathic effect / MTT | 0.018 µM |

Conditions beyond the fields shown may differ between rows. Blank or dashed fields: not listed here.